Experimental data published in patent publication US11162944B2, “Compositions and methods” (priority 2015, dated 2021).

Test system: biomarker (antibody) in serum from patients with suspected TB (tuberculosis)
Assay: ELISA of 64 serum samples on three synthetic antigens (Example 6)
Assay type: binding, human
Conditions: dilution 1 in 80
Protocol: ELISA assays were carried out as known to those practiced in the art using 96 well plates. In the first procedure, the ELISA assay was carried out on 96-well microplates and the purified antigens were dissolved in n-hexane at a concentration of 62.5 μg/mL. The antigen solution was diluted and 50 μL was placed in each well. The plates were left to dry at room temperature overnight. Blocking was done with 0.5% casein/PBS (400 μL/well) and the plates were left to incubate at 25° C. for 1 h. The casein was aspirated using the LT-3500 plate washer and the plates flicked dry. Then the serum (1:20 dilution in 0.5% casein/PBS, pH 7.4) was added to the plate (50 μL/well) and left to incubate at 25° C. for 1 h. The serum was aspirated and washed three times with (casein/PBS, 400 μL/well) using the same plate washer and the plates were flicked dry again. After that, the secondary antibody, in the example given IgG Fc (1:1000 dilution in 0.5% casein/PBS) was added to the plate (50 μL/well) and the plates were left to incubate at 25° C. for 30 min. The plates were washed three times again with casein/PBS (400 μL/well) and dried. Then, the OPD substrate was added to the plates, which were left to incubate at 25° C. for 30 min. Finally, 2.5 M H2SO4 (50 μL/well) was added and the absorbances of each well were read at 492, 450 and 630 nm using an LT-4000 plate reader. […]

Compound: CCCCCCCCCCCCCCCCCCCCCCCC[C@@H](C(=O)OC[C@H]1O[C@H](OC)[C@@H](O)[C@@H]1O)[C@H](O)CCCCCCCCCCCC1CC1CCCCCCCCCCCCCC[C@H]1C[C@H]1CCCCCCCCCCCCCCCCCCCC (some centres unmarked) [Antigen 3]
- Individual Sensitivity: 100%
- Individual Specificity: 80%
